Measured values from several laboratories, pooled; numbers as filed in NIAID ChemDB.

Shared fields: tests in culture; organism: HIV-1; read by: syncytia; endpoint: EC50

ECn is the concentration giving n% inhibition of infection, replication or growth. Conditions beyond the fields shown may differ between rows. Blank or dashed fields: not listed here.

SMILES	cells	strain	mutations	result
Nc1ncnc2c1ncn2C/C=C\CN1C(=O)c2ccccc2C1=O	CEM			>100 µM
COC(=O)C(c1ccccc1C)S(=O)c1cccc[n+]1[O-]	CEM	IIIB		>20 µg/mL
CN[C@H](CC(C)C)C(=O)N[C@H]1C(=O)N[C@@H](CC(N)=O)C(=O)N[C@H]2C(=O)N[C@H]3C(=O)N[C@H](C(=O)N[C@H](C(=O)O)c4cc(O)c(CNCc5ccc(-c6ccc(Cl)cc6)cc5)c(O)c4-c4cc3ccc4O)[C@H](O[C@H]3C[C@](C)(N)[C@@H](O)[C@H](C)O3)c3ccc(cc3)Oc3cc2cc(c3OC2O[C@H](CO)[C@@H](O)[C@H](O)[C@H]2O[C@H]2C[C@](C)(N)[C@@H](O)[C@H](C)O2)Oc2ccc(cc2Cl)[C@H]1O	CEM	IIIB		>22 µM
Cc1ccc(C(C)S(=O)c2cccc[n+]2[O-])cc1	CEM	IIIB		>0.032 µg/mL
Cc1ccc(C)c(C(C)S(=O)(=O)c2ccc(C)c[n+]2[O-])c1	CEM	IIIB	RT-E103K	60 µg/mL
COc1cc(CS(=O)(=O)c2cccc[n+]2[O-])cc(OC)c1OC	CEM	IIIB		≥20 µg/mL
Cc1ccc(C)c(C(Cl)S(=O)(=O)c2cc(C)cc[n+]2[O-])c1	MT-2	IIIB		0.64 µg/mL
Cc1ccc(C)c(CS(=O)(=O)c2ncccc2O)c1	CEM	IIIB		24 µg/mL
Nc1ncnc2c1ncn2C/C=C/CN1C(=O)c2ccccc2C1=O	CEM			>4 µM
O=C(O)/C=C/c1ccc(O)c(O)c1	MOLT-4	IIIB		7 µg/mL
O=C1c2ccccc2C(=O)N1C/C=C/Cn1cc(C(F)(F)F)c(=O)[nH]c1=O	CEM			>100 µM
O=S(=O)(O)O.O=S(=O)(O)O.O=S(=O)(O)O.O=S(=O)(O)O.O=S(=O)(O)O.O=S(=O)(O)O.OC[C@H]1O[C@@H]2O[C@H]3[C@H](O)[C@@H](O)[C@@H](O[C@H]4[C@H](O)[C@@H](O)[C@@H](O[C@H]5[C@H](O)[C@@H](O)[C@@H](O[C@H]6[C@H](O)[C@@H](O)[C@@H](O[C@H]7[C@H](O)[C@@H](O)[C@@H](O[C@H]1[C@H](O)[C@H]2O)O[C@@H]7CO)O[C@@H]6CO)O[C@@H]5CO)O[C@@H]4CO)O[C@@H]3CO	HuT-78 + HUT 78	IIIB		>500 µg/mL
COc1ccc(C)cc1CS(=O)(=O)c1cccc[n+]1[O-]	CEM	IIIB	RT-K103N	44 µg/mL
CC(=O)Nc1nc2c(ncn2C/C=C\CN2C(=O)c3ccccc3C2=O)c(=O)[nH]1	CEM			>100 µM
N#C/C(=C/c1ccc(Cl)cc1Cl)Sc1cccc[n+]1[O-]	CEM	IIIB		>0.8 µg/mL
O=C1c2ccccc2C(=O)N1C/C=C/Cn1ccc(=O)[nH]c1=O	CEM			>100 µM
Cc1ccc[n+]([O-])c1S(=O)(=O)C(C)c1cccc([N+](=O)[O-])c1C	CEM	IIIB		11 µg/mL
Cc1ccc(C)c(CSc2c(Cl)ccc[n+]2[O-])c1	CEM	IIIB	RT-V179D	0.32 µg/mL
O=S(Cc1ccc(F)cc1)c1cccc[n+]1[O-]	CEM	IIIB		≥20 µg/mL
Oc1cccc(O)c1O	MOLT-4	IIIB		11 µg/mL
COC(=O)C(C)NP(=O)(OC[C@@H]1C=C[C@H](n2cc(I)c(=O)[nH]c2=O)O1)Oc1ccccc1	CEM + CEM/0	IIIB		3 µM
Cc1ccc(C)c(C(C)Sc2cccc[n+]2[O-])c1	CEM	IIIB		6 µg/mL
Cc1cc(O)ccc1O	MOLT-4	IIIB		25 µg/mL
Cc1ccc(C)c(C(Cl)S(=O)(=O)c2c(C)ccc[n+]2[O-])c1	CEM	IIIB		>100 µg/mL
CCCCCCCCCCCCCCCCOCC(COP(=O)([O-])OCC[NH2+]C(C)C)OCC	CEM + CEM-SS	IIIB		>6 µM
Cc1cccc(O)c1O	MOLT-4	IIIB		15 µg/mL
CCCCCCCC(Sc1cccc[n+]1[O-])c1cc(C)c(C)c(C)c1	CEM	IIIB		>20 µg/mL
NC/C=C/Cn1cnc2c(N)ncnc21	CEM			>50 µM
O=C(O)Cc1ccc(O)c(O)c1	MOLT-4	IIIB		5 µg/mL
NC/C=C\Cn1cnc2c(N)ncnc21	CEM			4.83 µM
CCCCCCCCCCCC(Sc1cccc[n+]1[O-])c1cc(C)ccc1C	CEM	IIIB		>4 µg/mL
Cc1cccc(CS(=O)(=O)c2cccc[n+]2[O-])c1	CEM	IIIB		6.8 µg/mL
O=C1c2ccccc2C(=O)N1C/C=C\Cn1cc(F)c(=O)[nH]c1=O	CEM			>100 µM